Results on two compounds are retold here after patent US20130039943A1, “NOVEL METHOD” (priority 2010, published 2013).

Where “and” joins values, the source holds several entries; their conditions need not be identical. Identical values can stand only once. Marks after values point to notes of the source that are not given here.

What all share (format): cell-based
Assay [1] relates to H5N1 influenza virus produced on EB66 cells.
The test system of assay [2] is Influenza virus produced on MDCK cells.
Assay [3] deals with Murine Leukaemia Virus (MuLV).
Assay [4] relates to Porcine Pseudorabies Virus (PRV).
Another assay has as its system Hepatitis A Virus (HAV).
For assay [5], the system named is Influenza virus Malaysia B strain produced on MDCK cells.
The subject of assay [6] is Influenza virus Wisconsin A strain produced on MDCK cells.

As for Triton X-100, in assay [1], the LVR is 3.8*** log; the “log TCID50/ml” value is 5.2 log TCID50/ml and 5.0 log TCID50/ml.

Consider `O=C1CCO1` [BPL, beta-propiolactone], for which the viral titration reduction result in assay [2] was “about 8 logs”. Further, the LVR in assay [3] is 2.7 log and 2.8 log and 1.6 log; in assay [4], 3.4 log; in the assay on Hepatitis A Virus (HAV) it was 3.8 log. The “log TCID50/ml” value in assay [4] is 2.6 log TCID50/ml; in the assay with Hepatitis A Virus (HAV), 1.5 log TCID50/ml; in assay [5] it was “≦1.8 log TCID50/ml”; in assay [6] it was “≦0.8 log TCID50/ml”.
